{"source": "patent US20180244756A1", "about": "(US Dept. of Health and Human Services, published 2018)", "molecular_target": "T1, MERS-CoV S protein receptor binding domain (RBD), England1 strain, soluble (MERS-CoV, England1 strain, UniProt K9N5Q8 367-606)", "T1 sequence": "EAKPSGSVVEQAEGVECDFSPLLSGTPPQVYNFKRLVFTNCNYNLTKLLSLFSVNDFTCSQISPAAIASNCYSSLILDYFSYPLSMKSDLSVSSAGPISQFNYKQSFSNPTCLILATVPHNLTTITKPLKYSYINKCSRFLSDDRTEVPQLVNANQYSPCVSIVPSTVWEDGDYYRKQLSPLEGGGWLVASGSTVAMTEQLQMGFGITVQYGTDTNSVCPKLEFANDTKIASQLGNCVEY", "experiment": "ELISA on RBD, mAb titrated 0.0032-10 µg/ml"}
{"binder": "D12 antibody (antibody, V domains shown) VH: EVKLVESGGGLVKPGGSLKLSCAASGFTFSSYAMSWVRQTPEKRLEWVATISSGGTYTYYPDSVKGRFTISRDNAENTLYLQMSSLRSEDTAMYYCVRDGNSMDYWGQGTSVTVSS VL: DIQMTQTTSSLSASLGDRVTIICRASQDINNYLNWYQQKPDGTVKLLIYYTSRLHSGVPSRFSGSGSGSDYSLTISNLEQEDIATYFCQQANTLPPTFGAGTKLELR", "values": [{"measurement": "EC50 (read off the curve)", "value": "~0.05", "unit": "mg/L"}]}
